# From patent US6663881B2 (priority 1993, dated 2003)
# Key:
# [1] = system: HT29 marker-negative cells; experiment: Protein synthesis (3H-leucine incorporation) after 5 minute pulse; format: cell-based
# [2] = system: A375 marker-positive cells; experiment: as above; format: cell-based, human; settings: short-term
substance,measurement,setting,value
Roridin A,inhibition of cellular protein synthesis,[1]; long-term (16-18 hours recovery),still manifest after the 16-18 hours recovery period
same,inhibition of cellular protein synthesis,[1]; short-term (4 h 3H-leucine immediately after),dose-response inhibition
same,inhibition of cellular protein synthesis,[2],non-specifically inhibitory
